These are literature values, as cited in publication PMC5923399 (Marine Drugs, 2018).

For one series, the system named is α3β2 nAChR. To be noted: read-out: IC50 α3β2, rat nAChR, cited from earlier work.
The next series concerns the target α7 nAChR (Rattus norvegicus, UniProt Q05941). To be noted: cited from earlier work.

Read-outs that look alike come from different tables or passages of the source. The match of structure and compound is tentative.

In the case of `CC[C@H](C)[C@H](N)C(=O)N[C@@H](CCCNC(=N)N)C(=O)N[C@@H](CC(=O)O)C(=O)N[C@@H](CC(C(=O)O)C(=O)O)C(=O)N[C@H]1CSSC[C@@H]2NC(=O)[C@H](C)NC(=O)[C@@H]3CCCN3C(=O)[C@H](CC(N)=O)NC(=O)[C@H](CO)NC(=O)[C@H](CSSC[C@@H](C(=O)O)NC(=O)[C@H](C(C)C)NC(=O)[C@H](Cc3cnc[nH]3)NC(=O)[C@@H]3C[C@@H](O)CN3C(=O)[C@H](CC(N)=O)NC(=O)[C@H](CC(N)=O)NC(=O)[C@H](C(C)C)NC(=O)[C@H](CCCNC(=N)N)NC2=O)NC1=O`, the IC50 is 3.1 nM in the series with α3β2 nAChR (ref [28]) and 4.5 nM on α7 nAChR (read-out: IC50 α7, ref [28]).
On to `CC(C)[C@@H]1NC(=O)[C@H](Cc2cnc[nH]2)NC(=O)[C@@H]2CCCN2C(=O)[C@H](CC(N)=O)NC(=O)[C@H](CC(N)=O)NC(=O)[C@H](C(C)C)NC(=O)[C@H](CCCNC(=N)N)NC(=O)[C@@H]2CSSC[C@H](NC(=O)[C@H](CCC(=O)O)NC(=O)[C@@H](N)CC(=O)O)C(=O)N[C@@H](CSSC[C@@H](C(=O)N[C@@H](CCCNC(=N)N)C(=O)N[C@@H](CCCNC(=N)N)C(=O)N[C@@H](CCCNC(=N)N)C(=O)O)NC1=O)C(=O)N[C@@H](CO)C(=O)N[C@@H](CC(N)=O)C(=O)N1CCC[C@H]1C(=O)N[C@@H](C)C(=O)N2`, for which the IC50 is 60.1 nM in the series with α3β2 nAChR (ref [26]) and 1.8 nM on α7 nAChR (read-out: IC50 α7, ref [26]).
On to `CC[C@H](C)[C@@H]1NC(=O)[C@H](Cc2cnc[nH]2)NC(=O)[C@@H]2CCCN2C(=O)[C@H](CC(N)=O)NC(=O)[C@H](CC(N)=O)NC(=O)[C@H](C(C)C)NC(=O)[C@H](CC(N)=O)NC(=O)[C@@H]2CSSC[C@H](NC(=O)CN)C(=O)N[C@@H](CSSC[C@@H](C(=O)NCC(N)=O)NC1=O)C(=O)N[C@@H](CO)C(=O)N[C@@H](Cc1cnc[nH]1)C(=O)N1CCC[C@H]1C(=O)N[C@@H](C)C(=O)N2`, for which the IC50 is 11 nM in the series with α3β2 nAChR (ref [32]) and 27.1 nM on α7 nAChR (read-out: IC50 α7, ref [32]).
